Laboratory results as given in patent US10947274.

Biological target: rat α9α10 nAChR (rat), P43144
Assay: cell-based or functional assay

## GCUSDPRCRYRUR (modifications not checked) [[C3 Sec;C12Sec] RgIA]
  % block at 10 nM: 81.9%
  IC50, block of the acetylcholine response (Xenopus oocytes): < 10 nM
